Anti-infective test results gathered from many reports (values: NIAID ChemDB through PubChem).

Shared fields: tests in culture; agent: HIV-1; read-out: inhibition

An empty or dashed field is not shown. Lines come from different laboratories, so protocols vary. Inhibition is in % at the dose shown (toxicity tests: loss of growth or viability). Two numbers with a dash give a range or band.

compound	setting	method	cell line	strain	dose	value
Fc1ccccc1C1SCc2nc3ncccc3n21		cytopathic effect / XTT	CEM	RF	95.9 µM	17%
CC(C)CN(C[C@@H](O)[C@H](Cc1ccccc1)NC(=O)[C@@H](NC(=O)CNC(C)(C)c1ccccc1)C(C)(C)C)S(=O)(=O)c1ccc2nc(N)sc2c1			MT-2	RF	90 µM	<1%
CCOP(=O)(OCC)C(O)n1cc(-n2ccc(=O)[nH]c2=O)nn1			CEM	IIIB	100 µM	0%
Nc1cc(S(=O)(=O)O)c2ccccc2c1N		syncytia	MOLT-4/HUT-78	IIIB	3.4 µM	7%
Brc1ccccc1C1SCc2nc3ncccc3n21		cytopathic effect / XTT	CEM	RF	2.48 µM	13%
Nc1ncnc2c1ncn2C1OC(COP(=O)(O)OC2CC(COP(=O)(O)OC3C(O)C(CO)OC3n3cnc4c(N)ncnc43)OC2n2cnc3c(N)ncnc32)CC1O		p24	H9	IIIB	1 µM	65%
O=C(Cc1ccc([N+](=O)[O-])cc1)Nc1nc(-c2ccccc2)cs1			TZM-bl	NL4-3	50 µg/mL	65.22%
O=c1[nH]c(=O)n([C@H]2C[C@H](CO)[C@@H](CO)S2)cc1F			MT-4		100 µg/mL	0%
CC(C)CN(C[C@@H](O)[C@H](Cc1ccccc1)NC(=O)[C@@H](NC(=O)[C@@H](C)NC(C)(C)c1ccccc1)C(C)(C)C)S(=O)(=O)c1ccc2ncsc2c1			MT-2	RF	90 µM	<1%
COc1c(C)c2c(c(O)c1C/C=C(\C)CCC(=O)O)C(=O)OC2		RT activity	Macrophage + Monocytes/macrophages	SF162	10 µM	95%
C=C(C)C12OCOC1C1C3OC3(CO)C(O)C3(O)C(=O)C(C)=CC3C1(O/C=C/C=C/CCC)C(C)C2OC(=O)c1ccccc1		fluorescence	PBMC		0.09 µM	90%
COc1ccc(C[C@H](C[C@H](O)[C@H](Cc2ccccc2)NC(=O)OC(C)(C)C)C(=O)N[C@H](C(=O)N[C@@H](Cc2ccccc2)C(=O)N2CCOCC2)C(C)C)cc1		RT activity	MT-2	MN	0.03 µM	90%
Nc1ncnc2c1ncn2Cc1cn(C(O)P(=O)(O)O)nn1				IIIB	100 µM	0%
O=C1c2c(O)c(O)cc(=O)n2CCN1Cc1ccc(F)cc1		p24 / ELISA	MT-4		0.31 µM	≥95%
O=C1CCC(N2C(=O)c3ccccc3C2=O)C(=O)N1		RT activity	Macrophage	JR-FL	50 µg/mL	36%
CC(C)Nc1cccnc1N1CCN(C(=O)c2cc3ccccc3[nH]2)CC1		p24	H9	IIIB	0.1 µM	64%
CCC(C)[C@H](NC(=O)CNC(C)(C)c1cccc(F)c1)C(=O)N[C@@H](Cc1ccccc1)[C@H](O)CN(CC(C)C)S(=O)(=O)c1ccc2ncsc2c1			MT-2	RF	90 µM	<1%
O=C1c2c(O)c(O)cc(=O)n2CCN1Cc1ccc(Cl)cc1		p24 / ELISA	MT-4		1 µM	≥95%
CC(C)CN(C[C@@H](O)[C@H](Cc1ccccc1)NC(=O)[C@@H](NC(=O)[C@@H](C)NC(C)(C)c1ccccc1)C(C)(C)C)S(=O)(=O)c1ccc2nc(N)sc2c1			MT-2	RF	90 µM	<1%
O=C(NCCc1ccccc1)Nc1nc(C(F)(F)F)cs1		cytopathic effect / XTT	MT-4		100 µg/mL	31–66%
Clc1ccccc1C1SCc2nc3ncccc3n21		cytopathic effect / XTT	CEM	RF	9.04 µM	14%
Nc1ncnc2c1ncn2[C@@H]1O[C@H](COP(=O)([O-])O[C@@H]2C[C@@H](COP(=O)([O-])O[C@@H]3C[C@@H](COP(=O)([O-])O)O[C@H]3n3cnc4c(N)ncnc43)O[C@H]2n2cnc3c(N)ncnc32)C[C@H]1O		p24	H9	IIIB	1 µM	90%
O=C(Cc1ccccc1Cl)Nc1nc(-c2ccccc2)cs1			TZM-bl	NL4-3	50 µg/mL	68.43%
Nc1ncnc2c1ncn2[C@@H]1O[C@H](COP(=O)(O)O[C@@H]2[C@H](O)[C@@H](COP(=O)(O)O[C@@H]3[C@H](O)[C@@H](CO)O[C@H]3n3cnc4c(N)ncnc43)O[C@H]2n2cnc3c(N)ncnc32)[C@@H](O)[C@H]1O		p24	H9	IIIB	1 µM	10%
CCC(C)[C@H](NC(=O)CNC(C)(C)c1cccc(F)c1)C(=O)N[C@@H](Cc1ccccc1)[C@H](O)CN(CC(C)C)S(=O)(=O)c1ccc2ncccc2c1			MT-2	RF	90 µM	<1%
Oc1ccc2cc1Cc1cc(ccc1O)N=CC1=CC=C(C=Nc3ccc(O)c(c3)Cc3cc(ccc3O)N=CC3=CC=C(C=N2)O3)O1		cytopathic effect / XTT	CEM + CEM-SS	RF	2.5 µg/mL	35%
CCOP(=O)(CCn1cc(-n2c[n+](C)c(=O)[nH]c2=O)nn1)OCC			CEM	IIIB	100 µM	0%
CC(=O)N[C@H]1CSSC[C@@H](C(=O)N[C@@H](CCC(N)=O)C(=O)O)NC(=O)[C@H](Cc2cnc[nH]2)NC(=O)[C@H](Cc2ccc(O)cc2)NC1=O	6 d	RT activity	MT-4	NL4-3	2.5 µM	63%
Nc1ncnc2c1ncn2C1OC(CO)CC1OP(=O)(O)OCC1CC(OP(=O)(O)OCC2OC(n3cnc4c(N)ncnc43)C(O)C2O)C(n2cnc3c(N)ncnc32)O1		p24	H9	IIIB	1 µM	5%
Fc1cccc(C2SCc3nc4ncccc4n32)c1		cytopathic effect / XTT	CEM	RF	4.2 µM	15%
OCCCCCCOc1ccc(-c2ccccc2)cc1		syncytia	JM	GB8	7.5 µg/mL	72%
Cc1ccc(CC(=O)Nc2nc(-c3ccccc3)cs2)cc1			TZM-bl	NL4-3	50 µg/mL	84.45%
Nc1ccn([C@H]2C[C@H](CO)[C@@H](CO)S2)c(=O)n1			MT-4		100 µg/mL	0%
CSCC[C@H](NC(=O)[C@H](Cc1ccc(O)cc1)NC(=O)[C@H](CCCCN)NC(=O)[C@@H](N)Cc1c[nH]c2ccccc12)C(=O)N[C@H](C(=O)N[C@H](CCSC)C(=O)O)C(C)C		p24	PBMC	BAL R5	10 µM	38%
CSC(C)(C)[C@H](NC(=O)CNC(C)(C)c1cccc(F)c1)C(=O)N[C@@H](Cc1ccccc1)[C@H](O)CN(CC(C)C)S(=O)(=O)c1ccc2ncccc2c1			MT-2	RF	90 µM	<1%
NS(=O)(=O)c1ccc(NC(=O)c2ccccc2SSc2ccccc2C(=O)Nc2ccc(S(N)(=O)=O)cc2)cc1		virus yield	HeLa P4 + HeLa	NL4-3	10 µM	90%
O=c1ccn(-c2cn(CCCP(=O)(O)O)nn2)c(=O)[nH]1			CEM	IIIB	100 µM	0%
Cc1cn([C@H]2C[C@H](CO)[C@@H](CO)S2)c(=O)[nH]c1=O			MT-4		100 µg/mL	0%
CC(C)CN(C[C@@H](O)[C@H](Cc1ccccc1)NC(=O)[C@@H](NC(=O)CNC(C)(C)c1ccccc1)C(C)(C)C)S(=O)(=O)c1ccc(N)cc1			MT-2	RF	90 µM	<1%
CC(=O)N[C@@H](Cc1ccc(O)cc1)C(=O)N[C@H]1CSSC[C@@H](C(=O)O)NC(=O)[C@H](CCCCN)NC(=O)[C@H](CCCCN)NC1=O	6 d	RT activity	MT-4	NL4-3	2.5 µM	28%
CCCCCCCCCCCCC/C=C/[C@@H](O)[C@H](CO)NC(=O)CCCCCOc1ccc2[nH]c(C(=O)N3CCN(c4ncccc4NC(C)C)CC3)cc2c1		p24	H9	IIIB	0.1 µM	44%
Nc1ncnc2c1ncn2[C@@H]1O[C@H](COP(=O)([O-])O[C@@H]2[C@H](O)[C@@H](COP(=O)([O-])O[C@@H]3[C@H](O)[C@@H](COP([O-])(=S)O[C@@H]4[C@H](O)[C@@H](CO)O[C@H]4n4cnc5c(N)ncnc54)O[C@H]3n3cnc4c(N)ncnc43)O[C@H]2n2cnc3c(N)ncnc32)[C@@H](O)[C@H]1O		syncytia	PBL	IIIB	300 µM	1%
CO[C@H]1C[C@@H]2CC[C@@H](C)[C@@](O)(O2)C(=O)C(=O)N2CCCC[C@H]2C(=O)O[C@H]([C@H](C)C[C@@H]2CC[C@@H](O)[C@H](OC)C2)CC(=O)[C@H](C)/C=C(\C)[C@@H](O)[C@@H](OC)C(=O)[C@H](C)C[C@H](C)/C=C/C=C/C=C/1C		p24	PBMC	93BR029 R5 clinical isolate	0.001 µM	73%
CCNc1cccnc1N1CCN(C(=O)c2cc3cc(O)ccc3[nH]2)CC1		p24	H9	IIIB	0.1 µM	40%
COc1ccc(OCC2OC2COC(=O)c2ccc(O)c(OC)c2)cc1		GFP / fluorescence	CEM-GFP		75 µM	6%
CC(C)CN(C[C@@H](O)[C@H](Cc1ccccc1)NC(=O)[C@@H](NC(=O)[C@@H](C)NC(C)(C)c1ccccc1)C(C)(C)C)S(=O)(=O)c1ccc2ncccc2c1			MT-2	RF	90 µM	<1%
CCCCC[C@H](O)/C=C/C1C(=O)C[C@H](O)[C@@H]1C/C=C\CCCC(=O)O			U-937		5 µM	45%
Nc1ncnc2c1ncn2[C@@H]1O[C@H](COP(=O)(O)O[C@@H]2[C@H](O)[C@@H](COP(=O)(O)O[C@@H]3[C@H](O)[C@@H](COP(=O)(O)O)O[C@H]3n3cnc4c(N)ncnc43)O[C@H]2n2cnc3c(N)ncnc32)[C@@H](O)[C@H]1O		p24	H9	IIIB	1 µM	5%
O=C1c2ccccc2C(=O)c2c1cc(S(=O)(=O)O)c(O)c2O		cytopathic effect	SupT1 + Sup-T1	IIIB	50 µg/mL	0%
O=C(O)[C@H]1O[C@@H](Oc2ccc(/C=C/c3cc(O)cc(O)c3)cc2)[C@H](O)[C@@H](O)[C@@H]1O		RT activity	PBMC	IIIB	300 µM	30.4%
Nc1ncnc2c1ncn2C1OC(COP(=O)(O)OC2C(O)C(COP(=O)(O)OC3C(O)C(CO)OC3n3cnc4c(N)ncnc43)OC2n2cnc3c(N)ncnc32)CC1O		p24	H9	IIIB	1 µM	5%

The first 7 rows once more:

compound,setting,method,cell line,strain,dose,value
Fc1ccccc1C1SCc2nc3ncccc3n21,,cytopathic effect / XTT,CEM,RF,95.9 µM,17%
CC(C)CN(C[C@@H](O)[C@H](Cc1ccccc1)NC(=O)[C@@H](NC(=O)CNC(C)(C)c1ccccc1)C(C)(C)C)S(=O)(=O)c1ccc2nc(N)sc2c1,,,MT-2,RF,90 µM,<1%
CCOP(=O)(OCC)C(O)n1cc(-n2ccc(=O)[nH]c2=O)nn1,,,CEM,IIIB,100 µM,0%
Nc1cc(S(=O)(=O)O)c2ccccc2c1N,,syncytia,MOLT-4/HUT-78,IIIB,3.4 µM,7%
Brc1ccccc1C1SCc2nc3ncccc3n21,,cytopathic effect / XTT,CEM,RF,2.48 µM,13%
Nc1ncnc2c1ncn2C1OC(COP(=O)(O)OC2CC(COP(=O)(O)OC3C(O)C(CO)OC3n3cnc4c(N)ncnc43)OC2n2cnc3c(N)ncnc32)CC1O,,p24,H9,IIIB,1 µM,65%
O=C(Cc1ccc([N+](=O)[O-])cc1)Nc1nc(-c2ccccc2)cs1,,,TZM-bl,NL4-3,50 µg/mL,65.22%